Pooled drug test results. Numbers come from NIAID ChemDB, via PubChem.

Shared fields: tests on isolated targets; species: HIV-1; protein: Protease; read-out: IC50

ICn is the concentration giving n% inhibition.

SMILES	changes	result
CC(C)[C@H](NC(=O)[C@H](C)NC(=O)c1ccccc1)C(=O)N[C@@H](Cc1ccccc1)C(O)C(O)[C@H](Cc1ccccc1)NC(=O)[C@@H](NC(=O)[C@H](C)NC(=O)c1ccccc1)C(C)C	-	0.017 µM
CC[C@@H](C)[C@H](NC(=O)[C@@H]1CCCN1C(=O)[C@@H](O)[C@H](CC1CCCCC1)NC(=O)[C@H](CC(N)=O)NC(=O)c1ccco1)C(=O)N[C@H](C(N)=O)C(C)C	-	<5 µM
CCCO[C@H]1[C@H](OCc2ccccc2)[C@@H](O)[C@H](Oc2ccccc2)O[C@@H]1CNC(=O)C(NC(C)=O)C(C)C	-	>100 µM
CC(C)CN(C[C@@H](O)[C@H](Cc1ccccc1)NC(=O)[C@H](C)N1C(=O)c2ccccc2C1=O)S(=O)(=O)c1ccc(Br)cc1	-	>0.1 µM
CON[C@H](C(=O)NC(=O)[C@H]1N(C(=O)[C@@H](O)[C@H](Cc2ccccc2)NC(=O)[C@@H](NC(=O)[C@H](Cc2ccccc2)NC(C)=O)C(C)C)CSC1(C)C)C(C)C	PR-V82A	0.016 µM
O=C(O)/C=C/c1ccc(O)cc1	-	>100 µM
NC(=O)C[C@H]1C[C@@H](C2=CN[C@@](Cc3ccccc3)(C[C@H](O)[C@H](CCc3ccccc3)NC(=O)O[C@H]3CCOC3)C2=O)c2ccccc21	-	0.0024 µM
CSC[C@H](NC(=O)COc1cccc2ccccc12)C(=O)N[C@@H](Cc1ccccc1)[C@H](O)C(=O)N1CCC[C@H]1C(=O)NC(C)(C)C	-	<0.05 µM
CCOC(=O)c1cn(CC(O)CNc2ccccc2)cc1-c1ccccc1	-	>200 µM
C=C(C)[C@@H]1CC[C@]2(C(=O)OC)CC[C@]3(C)[C@H](CC[C@@H]4[C@@]5(C)CC[C@H](O)C(C)(C)[C@@H]5CC[C@]43C)[C@@H]12	-	>25 µM
CC(C)(C)OC(=O)N1C2C3C4N(C(=O)OC(C)(C)C)C5C(C1C5(CO)[C@H]3c1ccccc1)[C@@H](c1ccccc1)C24CO	-	0.072 µM
CC(=O)ONc1ccc(S(=O)(=O)N(CC(C)C)C[C@@H](O)[C@H](Cc2ccccc2)NC(=O)CN2C(=O)c3ccccc3C2=O)cc1	-	0.02 µM
CCOC(=O)c1cn(CC(O)CNc2ccccc2C(=O)OC)cc1-c1ccccc1	-	174 µM
CC(C)(C)NOC[C@@H]1CN(Cc2cccnc2)CCN1CS(=N)(=O)C[C@@H](CCc1ccccc1)C(=O)N[C@H]1c2ccccc2C[C@H]1O	-	100 µM
CO[C@H]1[C@H](OCc2ccccc2)[C@@H](O)[C@H](Oc2ccccc2)O[C@@H]1CNC(=O)[C@@H](NC(=O)OC(C)(C)C)C(C)C	-	>100 µM
CCOC(=O)c1ccccc1SCC(O)Cn1cc(C(=O)OCC)c(-c2ccccc2)c1	-	200 µM
CC(C)CN(C[C@@H](O)[C@H](Cc1ccccc1)NC(=O)CCCN1C(=O)c2ccccc2C1=O)S(=O)(=O)c1ccc(Br)cc1	-	>0.1 µM
CC(=O)N[C@@H](Cc1c[nH]c2ccccc12)C(=O)N[C@H](C(=O)N[C@@H](Cc1ccccc1)[C@H](O)[C@@H](O)[C@H](Cc1ccccc1)NC(=O)[C@@H](NC(=O)[C@H](Cc1c[nH]c2ccccc12)NC(C)=O)C(C)C)C(C)C	-	0.012 µM
CC(C)CN(C[C@@H](O)[C@H](Cc1ccccc1)NC(=O)CCCc1c[nH]c2ccccc12)S(=O)(=O)c1ccc(Br)cc1	-	>0.1 µM
COC(=O)[C@H](CC(C)C)NC(=O)[C@H](Cc1ccccc1)NC(=O)[C@@H]1O[C@@H](C(=O)N[C@@H](Cc2ccccc2)C(=O)N[C@@H](CC(C)C)C(=O)OC)[C@@H](O)[C@@H]1O	-	>2 µM
C=C(C)[C@@H]1CC[C@]2(C(=O)O)CC[C@]3(C)[C@H](CC[C@@H]4[C@@]5(C)CC[C@H](OC(=O)CCCC(=O)O)C(C)(C)[C@@H]5CC[C@]43C)[C@@H]12	-	4 µM
CO[C@H]1[C@H](OCc2ccccc2)[C@@H](O)[C@H](Oc2ccccc2)O[C@@H]1CNC(=O)C(NC(C)=O)C(C)C	-	>100 µM
CC1(C)CC[C@]2(C(=O)O)CC[C@]3(C)C(=CCC4[C@@]5(C)CC[C@H](OC(=O)CCCC(=O)O)C(C)(C)C5CC[C@]43C)C2C1	-	4 µM
CCOC(=O)c1ccn(CC(O)CNc2ccccc2)c1	-	>200 µM
CC(C)(C)NC(=O)[C@H]1N(C(=O)[C@@H](O)[C@H](Cc2ccccc2)NC(=O)[C@H](CC(N)=O)NC(=O)COc2cccc3c2CCCC3)CSC1(C)C	-	<0.05 µM
CON[C@H](C(=O)NC(=O)[C@H]1N(C(=O)[C@H](O)[C@H](Cc2ccccc2)NC(=O)[C@@H](NC(=O)[C@H](C)NC(=O)Oc2ccccc2)C(C)C)CSC1(C)C)C(C)C	-	0.475 µM
CC(C)[C@H](NC(=O)COc1cccc2cnccc12)C(=O)N[C@@H](Cc1ccccc1)[C@H](O)C(=O)N1CCC[C@H]1C(=O)NC(C)(C)C	-	<0.05 µM
Cc1nsc(C)c1CNC(=O)[C@H]1N(C(=O)[C@@H](O)C[C@@H](Cc2ccccc2)C(=O)N[C@H]2c3ccccc3OC[C@H]2O)COC12CCCC2	-	0.00011 µM
CC(C)[C@H](NC(=O)OC(C)(C)C)C(=O)N[C@@H](Cc1ccccc1)C(=O)NC[C@@H]1O[C@@H](CNC(=O)[C@H](Cc2ccccc2)NC(=O)[C@H](NC(=O)OC(C)(C)C)C(C)C)[C@@H](O)[C@@H]1O	-	>2 µM
COC(=O)c1ccccc1NCC(O)Cn1c(C(=O)NC(C)(C)C)cc2ccccc21	-	115 µM
CC(C)(C)OC(=O)N1C2C3(CO)C(c4ccccc4)C4(CO)C1C1(CO)C(c5ccccc5)C2(CO)C3N(C(=O)OC(C)(C)C)C41	-	0.02 µM
CC(=O)ONc1ccc(S(=O)(=O)N(CC(C)C)C[C@@H](O)[C@H](Cc2ccccc2)NC(=O)Cc2c[nH]c3ccccc23)cc1	-	0.008 µM
C[C@@H]1CC[C@]2(C(=O)O)CC[C@]3(C)C(=CCC4[C@@]5(C)CC[C@H](OC(=O)CCCC(=O)O)C(C)(C)C5CC[C@]43C)C2[C@H]1C	-	4 µM
CC(C)C[C@H](NC(=O)[C@H](Cc1ccccc1)NC(=O)[C@@H]1O[C@@H](C(=O)N[C@@H](Cc2ccccc2)C(=O)N[C@@H](CC(C)C)C(=O)Nc2ccccc2)[C@@H](O)[C@@H]1O)C(=O)Nc1ccccc1	-	>2 µM
CC(C)(C)CNC(=O)[C@@H]1CCCN1C(=O)[C@@H](O)[C@H](Cc1ccccc1)NC(=O)[C@H](CC(N)=O)NC(=O)OCc1ccccc1	-	<5 µM
CON[C@H](C(=O)NC(=O)[C@H]1N(C(=O)[C@@H](O)[C@H](Cc2ccccc2)NC(=O)[C@@H](NC(=O)[C@H](C)NC(C)=O)C(C)C)CSC1(C)C)C(C)C	-	0.008 µM
CC1(C)CCN(C(=O)[C@@H](O)[C@H](Cc2ccccc2)NC(=O)[C@H](CC(N)=O)NC(=O)OCc2ccccc2)[C@@H]1C(N)=O	-	>0.05 µM
C=C(C)[C@@H]1CC[C@]2(C(=O)O)CC[C@]3(C)[C@H](CC[C@@H]4[C@@]5(C)CC[C@H](O)C(C)(C)[C@@H]5CC[C@]43C)[C@@H]12	-	9 µM
CC(C)C[C@H](NC(=O)OC(C)(C)C)C(=O)N[C@@H](Cc1ccccc1)C(=O)NC[C@H]1O[C@H](CNC(=O)[C@H](Cc2ccccc2)NC(=O)[C@@H](CC(C)C)NC(=O)OC(C)(C)C)[C@@H](O)[C@@H]1O	-	>2 µM
CON[C@H](C(=O)NC(=O)[C@@H]1CSCN1C(=O)[C@@H](O)[C@H](Cc1ccccc1)NC(=O)[C@@H](NC(=O)[C@H](Cc1c[nH]c2ccccc12)NC(C)=O)C(C)C)C(C)C	-	0.012 µM
CC(=O)O[C@H]1CC[C@]2(C)[C@H]3CC=C4[C@@H]5[C@@H](C)[C@H](C)CC[C@]5(C(=O)O)CC[C@@]4(C)[C@]3(C)CC[C@H]2C1(C)C	-	13 µM
CC(C)C[C@@H](C(=O)N[C@@H](Cc1ccccc1)[C@H](O)CN(CC(C)C)S(=O)(=O)c1ccc(Br)cc1)N1C(=O)c2ccccc2C1=O	-	0.022 µM
NC(=O)C[C@H](NC(=O)OCc1ccccc1)C(=O)N[C@@H](Cc1ccccc1)[C@H](O)C(=O)N1CCC[C@H]1C(N)=O	-	>0.05 µM
CC(=O)ONc1ccc(S(=O)(=O)N(Cc2ccccc2)C[C@@H](O)[C@H](Cc2ccccc2)NC(=O)Cc2c[nH]c3ccccc23)cc1	-	0.014 µM
CC(C)(C)NC(=O)[C@@H]1C[C@]2(C)CCCC[C@]2(C)CN1C[C@@H](O)COc1ccc2[nH]ccc2c1	-	14 µM
C=CC[C@H](NC(=O)COc1cccc2ccccc12)C(=O)N[C@@H](Cc1ccccc1)[C@H](O)C(=O)N1CSC[C@H]1C(=O)NC(C)(C)C	-	<0.05 µM
CC(C)CN(C[C@@H](O)[C@H](Cc1ccccc1)NC(=O)COc1ccc2ccccc2c1)S(=O)(=O)c1ccc(Br)cc1	-	0.04 µM

A second listing of 6 rows from above:

SMILES | changes | result
O=C(O)/C=C/c1ccc(O)cc1 | - | >100 µM
CC(=O)O[C@H]1CC[C@]2(C)[C@H]3CC=C4[C@@H]5[C@@H](C)[C@H](C)CC[C@]5(C(=O)O)CC[C@@]4(C)[C@]3(C)CC[C@H]2C1(C)C | - | 13 µM
CC[C@@H](C)[C@H](NC(=O)[C@@H]1CCCN1C(=O)[C@@H](O)[C@H](CC1CCCCC1)NC(=O)[C@H](CC(N)=O)NC(=O)c1ccco1)C(=O)N[C@H](C(N)=O)C(C)C | - | <5 µM
C=C(C)[C@@H]1CC[C@]2(C(=O)O)CC[C@]3(C)[C@H](CC[C@@H]4[C@@]5(C)CC[C@H](OC(=O)CCCC(=O)O)C(C)(C)[C@@H]5CC[C@]43C)[C@@H]12 | - | 4 µM
CON[C@H](C(=O)NC(=O)[C@H]1N(C(=O)[C@@H](O)[C@H](Cc2ccccc2)NC(=O)[C@@H](NC(=O)[C@H](C)NC(C)=O)C(C)C)CSC1(C)C)C(C)C | - | 0.008 µM
CC(C)C[C@H](NC(=O)[C@H](Cc1ccccc1)NC(=O)[C@@H]1O[C@@H](C(=O)N[C@@H](Cc2ccccc2)C(=O)N[C@@H](CC(C)C)C(=O)Nc2ccccc2)[C@@H](O)[C@@H]1O)C(=O)Nc1ccccc1 | - | >2 µM

An empty or dashed field is not shown. Rows are shuffled and stem from different studies.